Pooled drug test results. Numbers come from NIAID ChemDB, via PubChem.

Shared fields: tests in culture; agent: Cryptococcus neoformans; read-out: MIC

Conditions beyond the fields shown may differ between rows. Two numbers with a dash give a range or band. Blank or dashed fields: not listed here.

smiles | strain | method | value
CCC/C=C/C=C/C=C/C(=O)OCC1O[C@@H](OC2C(CO)O[C@]3(OCc4cc(O)cc(O)c43)[C@H](O)[C@H]2OC(=O)/C=C/C=C/CC(O)/C=C/C=C/C=C/CCC)[C@H](O)[C@@H](O)[C@H]1O | IAM 4514 | - | >100 µg/mL
CCOC(=O)c1sc(SC)cc1-c1ccc(-c2cccnc2)cc1 | CN-17 | - | 50 µg/mL
Oc1ccc(O)c(C=Nc2ccccc2O)c1 | ATCC 24067 | broth dilution | 8 µg/mL
Clc1cccc(-c2n[nH]c(CN3CCc4sccc4C3)n2)c1 | NCIM576 | agar | 125 µg/mL
OC(c1cc(-c2ccc(Cl)cc2)nc2c1ccc1ccccc12)C1CCCCN1 | ATCC90112 | - | 0.8 µg/mL
CSc1cc(-c2ccc(C)cc2)c(C(=O)O)s1 | CN-17 | - | >100 µg/mL
CC(C)(C)C1CCC(CN2C3=NC[C@H](CC4CCCCC4)N3C[C@H]2CC2CCCCC2)CC1 | ATCC 32045 | - | 8–16 µg/mL
COc1cc(O)c2c(c1)C(=O)c1c(cc3c(c1O)-c1c(cc(C)c(C(=O)NC(CO)C(=O)O)c1O)[C@H](OC1OC(C)C(N(C)C)C(OC4OCC(O)C(O)C4O)C1O)[C@H]3O)C2=O | IAM 4514 | - | 0.8 µg/mL
CC(=O)N1CCC(n2cc(-c3nc(-c4ccc(Cl)cc4)n[nH]3)nn2)CC1 | - | agar | >200 µg/mL
O=C1CC(c2ccccc2)N(C(=O)CCl)C(c2ccccc2)C1 | - | - | >200 µg/mL
CCOC(=O)c1sc2cc(-c3ccc(Br)cc3)oc(=O)c2c1N | CN-17 | - | >100 µg/mL
OC(Cn1cncn1)(Cn1cncn1)c1ccc(F)cc1F | NCIM576 | agar | 5 µg/mL
Cc1noc(NS(=O)(=O)c2ccc(N)cc2)c1C | IFM 40215 | - | 64 µg/mL
COc1ccc(CC2CC([C@H]3O[C@@H]4OC(C)(C)O[C@@H]4[C@H]3OC)=NO2)cc1 | - | - | 25 µg/mL
CC(C)(C)C1CCC(CN2C3=NC[C@@H](CC4CCCCC4)N3C[C@H]2C2CCCCC2)CC1 | ATCC 32045 | - | 4–8 µg/mL
Oc1ccccc1N=Cc1cccc(O)c1O | C-3-1 | broth dilution | 2.8 µg/mL
Cc1cc(NC(=O)c2cccc(NC(=O)COc3ccccc3C)c2)no1 | ATCC90112 | - | >100 µg/mL
O=C1/C(=C/c2ccc(Cl)cc2)COc2ccccc21 | 25 | - | 6 µg/mL
CS(=O)(=O)N1CCC(n2cc(-c3nc(-c4ccc([N+](=O)[O-])cc4)n[nH]3)nn2)CC1 | - | agar | >200 µg/mL
Cc1cc(NC(=O)c2ccc(NC(=O)COc3ccc(Cl)cc3)cc2)no1 | ATCC90112 | - | >100 µg/mL
C=C1CC[C@@H]2C(C)(C)CCC[C@@]2(C)[C@@H]1CC/C(C)=C/Cn1c[n+](C)c2ncnc(NO)c21 | ATCC 90113 | resazurin | 10 µg/mL
COc1ccc(/C=C2\CSc3ccccc3C2=O)cc1OC | Farwania | - | 100 µg/mL
C1CCC(C[C@H]2CN3C(=NC[C@H]3C3CCCCC3)N2CCC23CC4CC(CC(C4)C2)C3)CC1 | ATCC 32045 | - | 4–8 µg/mL
COC12OC1(C13OC1(OC)C(=O)c1cc4cc(C)oc(=O)c4c(O)c1C3O)C(O)c1c(cc3cc(C)oc(=O)c3c1O)C2=O | ATCC90112 | - | 12.5 µg/mL
CC1CCS/C(=C(/C#N)n2cnc3ccccc32)S1 | - | - | >100 µg/mL
CSc1cc(-c2ccc(Br)cc2)c(C(=O)O)s1 | CN-17 | - | >100 µg/mL
COc1cc2c(c(O)c1C)C(=O)c1cc3c(c(O)c1C2=O)-c1c(cc(C)c(C(=O)NC(C)C(=O)O)c1OC)[C@H](OC1OC(C)C(N(C)C)C(OC2OCC(O)C(O)C2O)C1O)[C@H]3O | IAM 4514 | - | >100 µg/mL
CCOC(=O)c1sc2cc(-c3ccc(Cl)cc3)oc(=O)c2c1N | CN-17 | - | >100 µg/mL
CC(=O)OCC1=C(C(=O)O)N2C(=O)C(NC(=O)CSC(=S)N(C)Cc3ccccc3)C2SC1 | - | - | >250 µg/mL
CCN1C2=NC[C@@H](CC3CCCCC3)N2C[C@@H]1Cc1ccccc1 | ATCC 32045 | - | 62–125 µg/mL
CC1(C)O[C@H]2[C@@H](O1)[C@@H](C1=NOC(CO)C1)O[C@@H]1OC(C)(C)O[C@@H]12 | - | - | 12.5 µg/mL
CC(C)(C)C1CCC(CN2C3=NC[C@@H](C4CCCCC4)N3C[C@@H]2C2CCCCC2)CC1 | ATCC 32045 | - | 4–8 µg/mL
Oc1ccccc1N=Cc1ccc(F)cc1 | LMM 820 | - | 4 µg/mL
COc1cc(O)c2c(c1)C(=O)c1c(cc3c(c1O)-c1c(cc(C)c(C(=O)N[C@H](CO)C(=O)O)c1O)[C@H](OC1OC(C)C(N)C(OC4OCC(O)C(O)C4O)C1O)[C@H]3O)C2=O | D49 | - | 0.8 µg/mL
CC(=O)OCC1=C(C(=O)O)N2C(=O)C(NC(=O)CC(=S)Nc3ccccc3)C2SC1 | - | - | 8 µg/mL
O=C(/C(=C1/SCCN1c1ccc(Cl)cc1)n1ccnc1)c1ccc(Cl)cc1 | - | - | >100 µg/mL
CC(C)(C)OC(=O)N1CCC(n2cc(-c3nc(-c4ccccc4)n[nH]3)nn2)CC1 | - | agar | >200 µg/mL
COc1cc2c(c(O)c1C[N+](C)(C)C)C(=O)c1cc3c(c(O)c1C2=O)-c1c(O)c(C(=O)N[C@H](C)C(=O)O)c(C)c(N)c1[C@H](O[C@@H]1O[C@H](C)[C@H](N(C)C)[C@H](O[C@@H]2OC[C@@H](O)[C@H](O)[C@H]2O)[C@H]1O)[C@H]3O | IAM 4514 | - | >100 µg/mL
CCOC(=O)c1c(C)nc(NCCCCNc2ccnc3cc(Cl)ccc23)nc1-c1ccccc1[N+](=O)[O-] | ATCC 24067 | - | 5.7 µg/mL
CC(C)(C)C1CCC(CN2C3=NC[C@@H](CC4CCCCC4)N3C[C@@H]2CC2CCCCC2)CC1 | ATCC 32045 | - | 8–16 µg/mL
COc1ccc(/C=C2\COc3ccc(-c4ccccc4)cc3C2=O)cc1OC | Farwania | - | 100 µg/mL
Cc1ccc(OCC(=O)Nc2cccc(C(=O)Nc3cc(C)on3)c2)cc1 | ATCC90112 | - | >100 µg/mL
CCOC(=O)c1sc2cc(-c3ccc([N+](=O)[O-])cc3)oc(=O)c2c1N | CN-17 | - | >100 µg/mL
Cc1cc(NC(=O)c2ccc(NC(=O)COc3ccc(Cl)cc3Cl)cc2)no1 | ATCC90112 | - | >100 µg/mL
CO[C@@H]1[C@H]2OC(C)(C)O[C@H]2O[C@@H]1C1=NOC(C)C1C(=O)O | - | - | 12.5 µg/mL
CCC(C)C(NC)C(=O)NC1C(=O)OC(C(C)C)C(=O)OC(CC(C)C)C(=O)NC(C(C)CC)C(=O)N(C)C(CC(C)C)C(=O)NC(C(C)O)C(=O)N(C)C(C(C)C)C(=O)NC(C)C(=O)N(C)C(CC(C)C)C(=O)OC1C | IAM 4772 | - | 0.31 µg/mL
c1ccc(Cc2nc(CN3CCc4sccc4C3)n[nH]2)cc1 | NCIM576 | agar | >200 µg/mL
OC(c1cc(-c2ccc(C(F)(F)F)cc2)nc(-c2ccc(C(F)(F)F)cc2)c1)C1CCCCN1 | ATCC 90013 | - | 0.4 µg/mL
CCCCCCCCCCCCCC(=O)O | ATCC66031 | - | 1920 µM
Cc1cc(NC(=O)c2ccc(NC(=O)COc3cccc(Cl)c3Cl)cc2)no1 | ATCC90112 | - | >100 µg/mL
O=[N+]([O-])c1ccc(C=Nc2ccccc2O)cc1 | ATCC 28957 | broth dilution | 5.7 µg/mL
c1ccc(-c2n[nH]c(CN3CCc4sccc4C3)n2)cc1 | NCIM576 | agar | 150 µg/mL
CC(=O)OCC1=C(C(=O)O)N2C(=O)C(NC(=O)CSC(=S)N3CCCC3)C2SC1 | - | - | 250 µg/mL
Cc1ccc2c(n1)sc1c(Cl)nnnc12 | - | - | 25–100 µg/mL
C1CCC(C[C@H]2CN3C(=NC[C@@H]3C3CCCCC3)N2CCC23CC4CC(CC(C4)C2)C3)CC1 | ATCC 32045 | - | 16–32 µg/mL
O=C(C(=C1SCCCS1)n1ccnc1)c1ccc(Cl)cc1 | - | - | >100 µg/mL
CCN1CCC(n2cc(-c3nc(-c4ccccc4)n[nH]3)nn2)CC1 | - | agar | 120 µg/mL
Clc1ccc(Cl)c(Oc2ccc(NC(=NCCCNc3ccnc4cc(Cl)ccc34)Nc3ccccc3)cc2)c1 | - | broth dilution / absorbance | >50 µg/mL
CC(C)CC1NC(=O)CC(CCCCCCCCC(C)O)OC(=O)C(CC(C)C)NC(=O)C(CC(C)C)NC(=O)C(CC(C)C)NC(=O)C(C(C)C)NC(=O)C(CC(=O)O)NC(=O)C(CC(C)C)NC1=O | MTCC 4406 | absorbance | 2 µg/mL
CCCCCOc1ccc(-c2ccc(-c3ccc(C(=O)N[C@H]4C[C@@H](O)[C@@H](O)NC(=O)[C@@H]5[C@@H](O)[C@@H](C)CN5C(=O)[C@H]([C@H](C)O)NC(=O)[C@H]([C@H](O)[C@@H](O)c5ccc(O)cc5)NC(=O)[C@@H]5C[C@@H](O)CN5C(=O)[C@H]([C@H](C)O)NC4=O)cc3)cc2)cc1 | 1 isolates | - | >2 µg/mL
Oc1ccccc1C=Nc1ccccc1O | GM | broth dilution | 5.3 µg/mL
CC1(C)O[C@H]2O[C@H](C3=NOC(CBr)C3)[C@H](OCc3ccccc3)[C@H]2O1 | - | - | 25 µg/mL
CC(C)(C)C1CCC(CN2C3=NC[C@H](CC4CCCCC4)N3C[C@@H]2C2CCCCC2)CC1 | ATCC 32045 | - | 4–8 µg/mL
Cc1ccc(OCC(=O)Nc2ccc(C(=O)Nc3cc(C)on3)cc2)cc1 | ATCC90112 | - | >100 µg/mL
CCOC(=O)c1sc2cc(-c3ccc(F)cc3)oc(=O)c2c1N | CN-17 | - | >100 µg/mL
Nc1ccccc1Cc1nc(CN2CCc3sccc3C2)n[nH]1 | NCIM576 | agar | 75 µg/mL
Cc1cc2c(c(O)c1C(=O)NCC(=O)O)-c1c(cc3c(c1O)C(=O)c1cc(OCC(=O)O)cc(O)c1C3=O)[C@H](O)[C@H]2O[C@@H]1O[C@H](C)[C@H](O)[C@H](O[C@@H]2OC[C@@H](O)[C@H](O)[C@H]2O)[C@H]1O | IAM 4514 | - | 100 µg/mL
CCOC(=O)c1cc(C)nc2sc3c(Cl)nnnc3c12 | - | - | 100 µg/mL
C[C@@H](n1cnc2cc(Cl)ccc2c1=O)[C@](O)(Cn1cncn1)c1ccc(F)cc1F | Isolate 114.95 | - | 0.0098 µg/mL
Cc1ccc(/C=C2\CCc3ccccc3C2=O)cc1 | 25 | - | 50 µg/mL
CCOC(=O)c1sc(SC)c(C(=O)OCC)c1O | CN-17 | - | >100 µg/mL

Repeating the final 7 entries:

smiles | strain | method | value
CCOC(=O)c1sc2cc(-c3ccc(F)cc3)oc(=O)c2c1N | CN-17 | - | >100 µg/mL
Nc1ccccc1Cc1nc(CN2CCc3sccc3C2)n[nH]1 | NCIM576 | agar | 75 µg/mL
Cc1cc2c(c(O)c1C(=O)NCC(=O)O)-c1c(cc3c(c1O)C(=O)c1cc(OCC(=O)O)cc(O)c1C3=O)[C@H](O)[C@H]2O[C@@H]1O[C@H](C)[C@H](O)[C@H](O[C@@H]2OC[C@@H](O)[C@H](O)[C@H]2O)[C@H]1O | IAM 4514 | - | 100 µg/mL
CCOC(=O)c1cc(C)nc2sc3c(Cl)nnnc3c12 | - | - | 100 µg/mL
C[C@@H](n1cnc2cc(Cl)ccc2c1=O)[C@](O)(Cn1cncn1)c1ccc(F)cc1F | Isolate 114.95 | - | 0.0098 µg/mL
Cc1ccc(/C=C2\CCc3ccccc3C2=O)cc1 | 25 | - | 50 µg/mL
CCOC(=O)c1sc(SC)c(C(=O)OCC)c1O | CN-17 | - | >100 µg/mL